For the data set, the system named is RNAP holoenzyme (β′/β/α^I/α^II/ω/σ^70). The data set is described as follows: FRET probe-probe distances in RNAP holoenzyme with and without Lpm. More on the design: species or system Escherichia coli.

For the substance lipiarmycin [Lpm], the “decrease in distance on binding of Lpm” value (between β′ residue 1377 and σ residues 527 and 537) was over 10 Å. Besides, the “R (Å) +Lpm” value was 111 Å (α^II235-F/σ-TMR, σ R1.1 residue 59); 125 Å (α^II235-F/σ-TMR, σ R2 residue 366); 94 Å (α^II235-F/σ-TMR, σ R3.1 residue 459); 73 Å (α^II235-F/σ-TMR, σ R3.2 residue 517); 74 Å (α^II235-F/σ-TMR, σ R3.2 residue 527); 75 Å (α^II235-F/σ-TMR, σ R3.2 residue 537). Besides, the “R (Å) +Lpm” value reads like this: (α^II235-F/σ-TMR, σ R4 residue 560) 95 Å; (α^II235-F/σ-TMR, σ R4 residue 569) 95 Å; (α^II235-F/σ-TMR, σ R4 residue 578) 104 Å; (α^II235-F/σ-TMR, σ R4 residue 583) 99 Å; (α^II235-F/σ-TMR, σ R4 residue 596) 75 Å; (β′1377-F/σ-TMR, σ R1.1 residue 59) 74 Å. Further, the “R (Å) +Lpm” value is 74 Å (β′1377-F/σ-TMR, σ R2 residue 366); 66 Å (β′1377-F/σ-TMR, σ R3.1 residue 459); 60 Å (β′1377-F/σ-TMR, σ R3.2 residue 517); 62 Å (β′1377-F/σ-TMR, σ R3.2 residue 527); 58 Å (β′1377-F/σ-TMR, σ R3.2 residue 537); 72 Å (β′1377-F/σ-TMR, σ R4 residue 560). Moreover, the “R (Å) +Lpm” value is 66 Å (β′1377-F/σ-TMR, σ R4 residue 569); 72 Å (β′1377-F/σ-TMR, σ R4 residue 578); 80 Å (β′1377-F/σ-TMR, σ R4 residue 583); 69 Å (β′1377-F/σ-TMR, σ R4 residue 596).

Values taken from patent US8206898B2, “RNA exit channel: target and method for inhibition of bacterial RNA polymerase” (priority 2003, dated 2012).
